For at least one entry, the source does not settle the construct or the ends of the probe.
Experiments:
[1] = tested on: VcDciA (Vibrio cholerae); assay: BLI; conditions: 1 mM ATP, BLI: 50 mM Hepes pH 7.0, 150 mM NaCl, 0.1% Tween, temperature not stated, recombinant protein, protein details: N-terminal 6His
[2] = tested on: VcDciA[1-111] (Vibrio cholerae); assay: NMR; conditions: NMR: 20 mM phosphate pH 5.6, 50 mM NaCl, 303 K (also 293 K), 26 uM protein, recombinant protein
[3] = affinity similar to ssDNA, label: 5' biotin on strand 1
[4] = shifts at R2, R5, K26, fast exchange

## AAGCGTGGTGAAACCTACCTCTGATTCGAAACCTTCACTTTACGTGGTCTGGCGTGGTGAATGTTCGTCGGCGTGCTCGA / CCAGGAATACGGCAAGTTGGAGGCCGGGCTGGATGGAGACTAAGCTTTGGAAGTGAAGGTTTCGAATCAGAGGTAGGTTTCACCACGC [foDNA oso23/oso18]
[1]; [3]
  binding result: binds

## AAGCGTGGTGAAACCTACCTCTGATTCGAAACCTTCACTTTACGTGGTCTGGCGTGGTGAATGTTCGTCGGCGTGCTCGA / TCGAGCACGCCGACGAACATTCACCACGCCAGACCACGTAAAGTGAAGGTTTCGAATCAGAGGTAGGTTTCACCACGC [dsDNA oso23/oso24]
[1]; [3]
  binding result: binds

## AAGCGTGGTGAAACCTACCTCTGATTCGAAACCTTCACTTTACGTGGTCTGGCGTGGTGAATGTTCGTCGGCGTGCTCGA [ssDNA oso23]
[1]; 0.1-1 uM protein, not 1:1 binding, label: 5' biotin, single-stranded DNA
  binding result: binds

## GCTGTACCGACTAGCAAT (double strand) [dsDNA NMR]
[2]; [4]
  binding result: binds

## GCTGTACCGACTAGCAAT [ssDNA NMR]
[2]; shifts at R2, R5, K26, slightly less impact than other DNAs, single-stranded DNA
  binding result: binds

## GCTGTACCGTTTTTTTTT / TTTTTTTTTCGGTACAGC [foDNA NMR]
[2]; [4]
  binding result: binds

## TTTTTTTTTCGGTACAGC / GCTGTACCG [5'ext DNA NMR]
[2]; [4]
  binding result: binds

From PMC9865707, “Structural Insights of the DciA Helicase Loader in Its Relationship with DNA”
